The results in this text go back to PubChem BioAssay AID504423 (Broad Institute, 2011).

Each structure is given as a SMILES string. The list shows a part of the results, in another mix than the full data. Activity calls are given as the source filed them.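 How the source made its calls: active means highest replicate inhibition at or above 60% at 9 µM, even if other replicates fall short; inactive means all replicates below 60% inhibition.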

What is called inhibition is the drop in the measured response relative to a control, in per cent.

This test concerns Kaposi's sarcoma herpesvirus LANA C-terminal domain (residues 932-1162) DNA binding. Put plainly: inhibitors of KSHV C-LANA binding to DNA, primary screen, biochemical, fluorescence polarization, FAM-LBS DNA, MBP-C-LANA, single point (AID 504423).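 Further: 0% = neutral control wells and 100% = 4 µM acridine orange control.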 The conditions noted are these: at 9 µM, stronger effect = higher value.
Consider `O=P1(N(CCCl)CCCl)OCCCS1` (stereo not drawn), for which the inhibition is inactive: -1.08%.

On to `O=C(Nc1cc([As](=O)(O)O)ccc1O)c1ccccc1`, for which the inhibition is inactive: 10.1%.

For the molecule `O=[N+]([O-])c1ncn(CCn2ncnc2[N+](=O)[O-])n1`, the inhibition is inactive: 0.6%.

As to `CC(C)(C)C(=O)NC(Sc1ccncn1)C(Cl)(Cl)Cl` (stereo not drawn), the inhibition is inactive: -0.796%.

On to `O=C(O)CNc1ccc([As](=O)(O)O)cc1`, for which the inhibition was inactive: 0.444%.

Consider `COC(=O)C1(C)COP(=O)(Nc2ccccc2)OC1` (stereo not drawn), for which the inhibition is inactive: 0.55%.

As for `O=[N+]([O-])c1cccc(NC2=NCC(CBr)S2)c1` (stereo not drawn), the inhibition is inactive: -0.0402%.

Consider `O=[N+]([O-])c1cc([N+](=O)[O-])c(CCNc2ccccc2)c([N+](=O)[O-])c1`, for which the inhibition was inactive: 0.0466%.

Turning to `CCc1nc2c(n1)c1c(non1O)c1c2no[n+]1[O-]`, the inhibition was inactive: -1.64%.

Turning to `Cc1ccc(NP(=O)(Oc2ccccc2)Oc2ccccc2)nc1`, the inhibition is inactive: -0.0135%.

For the molecule `CC(=O)N1C2C3N(C(C)=O)C1C1N(C(C)=O)C(C(N1C(C)=O)N3C(C)=O)N2C(C)=O`, the inhibition is inactive: -2.08%.

Turning to `O=[N+]([O-])c1cccc2n[nH]nc12`, the inhibition was inactive: -1.18%.

Regarding `CCN(/C(=N/P(=O)(N1CCOCC1)N1CCOCC1)N1CCOCC1)c1ccc(OC)cc1`, the inhibition is inactive: 0.395%.

Turning to `C[N+]1=C2C=CC=CC=C2SC12C([N+](=O)[O-])=CC([N+](=O)[O-])=C[C-]2[N+](=O)[O-]` (stereo not drawn), the inhibition was inactive: -0.0145%.

Regarding `Nc1ccc([As](=O)(O)c2ccc(N)cc2)cc1`, the inhibition was inactive: -1.53%.

Turning to `CC1CCN(C(=O)Oc2c(Cl)cc(Cl)c3cccnc23)CC1`, the inhibition was inactive: 0.35%.

On to `CN(C)C(=O)OCCc1n(C)cc[n+]1C`, for which the inhibition is inactive: -0.403%.

`CC(C)=N/N=C(\N)N[N+](=O)[O-]`: the inhibition is inactive: 0.248%.

Take `Cc1ccc(N/C(=N/P(=O)(N2CCOCC2)N2CCOCC2)N2CCOCC2)cc1`: the inhibition is inactive: -0.855%.

For the molecule `CN(C(=O)Cc1ccc(Cl)c(Cl)c1)[C@H]1CCCC[C@H]1N1CCCC1`, the inhibition was inactive: -1.57%.

Take `NC(=O)c1cc([N+](=O)[O-])cc([N+](=O)[O-])c1N`: the inhibition was inactive: 1.51%.

Consider `CN1CCCC(OC(=O)C(c2ccccc2)c2ccccc2)C1` (stereo not drawn), for which the inhibition is inactive: -0.351%.

Regarding `Clc1ccc(Cl)c(NC2=NCC(CBr)S2)c1` (stereo not drawn), the inhibition was inactive: -2.74%.

As to `COc1ccccc1OP(=O)(Nc1ccc(C)cn1)Oc1ccccc1OC`, the inhibition is inactive: 1.37%.

As for `O=C(NC(Sc1ccncn1)C(Cl)(Cl)Cl)c1ccccc1` (stereo not drawn), the inhibition was inactive: 1.83%.

Take `Oc1ccccc1CNc1ccccn1`: the inhibition was inactive: 0.362%.

As for `Nc1cc(N)c2nonc2c1[N+](=O)[O-]`, the inhibition is inactive: 1.05%.

Turning to `CC(C)CC(=O)NC(Sc1ccc(Cl)cc1)C(Cl)(Cl)Cl` (stereo not drawn), the inhibition was inactive: 0.0812%.

Consider `O=P(Nc1nc2ccc(Cl)cc2s1)(c1ccccc1)c1ccccc1`, for which the inhibition is inactive: 0.345%.

Take `CCCC1OP(N)(=O)OCC1CC` (stereo not drawn): the inhibition is inactive: -1.03%.

Consider `CC(=O)Nc1ccc([As](=O)(O)O)cc1`, for which the inhibition was inactive: -2.59%.

As for `O=C(O)c1ccccc1[As](=O)(O)O`, the inhibition is inactive: -0.143%.

As to `CN(C(=O)Cc1ccc(Cl)c(Cl)c1)[C@H]1CCCC[C@@H]1N1CCCC1`, the inhibition is inactive: -0.759%.

Consider `Cc1ccc(NP(=O)(Oc2ccccc2F)Oc2ccccc2F)nc1`, for which the inhibition was inactive: -0.41%.

With `Cc1cc(SC(NC(=O)c2ccc(F)cc2)C(Cl)(Cl)Cl)ncn1` (stereo not drawn), the inhibition was inactive: 0.575%.

For `CCOP(=O)(Nc1ccccc1)OCC`, the inhibition is inactive: -3.65%.

Take `Nc1cccc2ccc([As](=O)(O)O)cc12`: the inhibition was inactive: -0.498%.

Regarding `CCN(N=Nc1nonc1N)c1nonc1N`, the inhibition was inactive: 0.823%.

Take `Cc1ccc(NP(=O)(Oc2cccc(C)c2)Oc2cccc(C)c2)nc1`: the inhibition was inactive: -0.577%.

In the case of `c1ccc(-c2nn[nH]n2)c(-c2nn[nH]n2)c1`, the inhibition is inactive: -1.35%.

In the case of `O=C(NC1CCS(=O)(=O)C1)NP(=S)(Oc1ccccc1)Oc1ccccc1` (stereo not drawn), the inhibition was inactive: -0.185%.

For the molecule `CCNC(=S)/N=C(\N)N[N+](=O)[O-]`, the inhibition is inactive: 0.271%.

As to `O=P1(N(CCCl)CCCl)OCCC2CCCCN21` (stereo not drawn), the inhibition is inactive: 2.37%.

For the molecule `CCC(=O)N1C2C3N(C(=O)CC)C1C1N(C(=O)CC)C(C(N1C(=O)CC)N3C(=O)CC)N2C(=O)CC`, the inhibition is inactive: 0.819%.

`O=C(OC1CN2CCC1CC2)c1ccccc1` (stereo not drawn): the inhibition was inactive: 6.38%.

Turning to `Cc1ccc(OP(=O)(Nc2ccccn2)Oc2ccc(C)cc2)cc1`, the inhibition is inactive: 1.37%.

As to `CC(=O)NC(SC(=S)N(CC(C)C)CC(C)C)C(Cl)(Cl)Cl` (stereo not drawn), the inhibition is inactive: 1.91%.

In the case of `COC(=O)c1cc2c(s1)N=C(c1ccccc1)N(C)P2(=O)N1CCOCC1` (stereo not drawn), the inhibition is inactive: -0.379%.

Take `O=c1c2cc([N+](=O)[O-])ccc2[nH]c2c([N+](=O)[O-])cc([N+](=O)[O-])cc12`: the inhibition was inactive: 0.265%.

As for `CN(C)C(=O)Oc1noc2ccccc12`, the inhibition is inactive: 0.831%.

Take `CC(NC(=O)COC(=O)C(O)(c1ccccc1)c1ccccc1)c1ccccc1` (stereo not drawn): the inhibition is inactive: -2.2%.

Turning to `Cc1ccccc1OP(=O)(Nc1ccccn1)Oc1ccccc1C`, the inhibition is inactive: -0.0775%.

With `CCOc1ccc(C2=NCC(CBr)S2)cc1` (stereo not drawn), the inhibition is inactive: -1.54%.

For `O=P1(Nc2nc3ccc(Cl)cc3s2)COc2ccccc2O1` (stereo not drawn), the inhibition is inactive: 0.141%.

As to `CC(C)(C)C(=O)NC(Sc1ccccc1)C(Cl)(Cl)Cl` (stereo not drawn), the inhibition was inactive: -0.147%.

Consider `CCc1cc(O)c([N+](=O)[O-])c(C)c1[N+](=O)[O-]`, for which the inhibition was inactive: 0.225%.

As for `C[C@H]1OP(=O)(Oc2ccccc2)C[C@@H]2O[C@@H]21` (stereo partly drawn), the inhibition was inactive: -0.811%.

`C[C@@H]1C=CCP(=O)(Oc2ccccc2)O1` (stereo partly drawn): the inhibition is inactive: 1.02%.

On to `Cc1ccccc1CN(C)C(=O)COC(=O)C(O)(c1ccccc1)c1ccccc1`, for which the inhibition is inactive: -1.12%.

With `COC(=O)C1(C)COP(=O)(NCc2ccccc2)OC1` (stereo not drawn), the inhibition was inactive: -1.11%.

Turning to `CC(=O)c1ccc(N2CC2c2ccncc2)cc1` (stereo not drawn), the inhibition was inactive: 4.4%.

In the case of `N#C/C(=C\c1ccc(N(CCBr)CCBr)cc1)C(N)=O`, the inhibition was inactive: 2.24%.

For `CC(=O)Nc1ccc(Oc2c([N+](=O)[O-])cc([N+](=O)[O-])cc2[N+](=O)[O-])cc1`, the inhibition was inactive: -0.159%.
